This note sets out measurements from publication PMC3551969, “Identification of Novel Protein-Protein Interactions of Yersinia pestis Type III Secretion System by Yeast Two Hybrid System” (PLoS ONE, 2013).

The target of test [1] is SycD (recombinant, for GST pull-down) (Y. pestis, UniProt P21207). The settings on record: both partners purified.
The target of test [2] is YscI (recombinant, for GST pull-down) (Y. pestis, UniProt P69970).

B1: YscG (recombinant, for GST pull-down) (natural protein)
chain: MKYKLNVLLAEIALIGTGNHYHEEANCIAEWLHLKGEEEAVQLIRLSSLMNRGDYASALQQGNKLAYPDLEPWLALCEYRLGLGSALESRLNRLARSQDPRIQTFVNGMREQLKT
Turning to B1, the binding result in test [1] is “binds”.

B2: YscF (recombinant, for GST pull-down) (natural protein)
chain: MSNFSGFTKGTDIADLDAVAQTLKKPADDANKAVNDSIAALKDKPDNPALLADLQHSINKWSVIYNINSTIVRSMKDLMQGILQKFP
In the case of B2, the binding result in test [2] was “binds”.
